Source: patent publication US7115576B2, “Water-soluble antibiotic comprising an amino sugar, in the form of a polysaccharide conjugate” (Fresenius Kabi Deutschland GmbH, priority 2001, dated 2006)

Experiments:
erythrocytes = assay: Haemolysis comparison test (extinction of supernatant at 576 nm); type: cell-based, human
Protocol: Of this stock solution, three dilutions were produced in accordance with Table 2 and their haemolytic action also investigated.
Production of the erythrocyte suspension: freshly taken human blood was diluted with approximately 5 times the volume of sterile 0.9% NaCl solution (batch designation: 9055A64 produced by the company Braun Melsungen) and centrifuged for 5 minutes at a relative centrifugal acceleration of 2000. The supernatant solution was then drawn off and the sedimented erythrocytes treated twice more in the same way.
The erythrocytes thus washed were counted in a Neubauer counting chamber and—where necessary—diluted again with sterile 0.9% NaCl solution to a final concentration of approx. 5·10^8 erythrocytes per ml. This suspension is according to DIN standard usable at room temperature for up to 6 hours.
Haemolysis comparison test: 5 ml of the solution to be tested was mixed with 1 ml of the above erythrocyte suspension, transferred to a cleaned centrifuge tube and incubated in a water bath at 37±1° C. for 20 minutes. Centrifuging was then performed for 5 minutes at a relative centrifugal acceleration of 2000.
The extinction of the supernatant liquid was measured. 5 ml of the 0.9% NaCl solution and the 5% glucose solution, which were mixed with 1 ml of the erythrocyte suspension, also incubated at 37±1° C. for 20 minutes and then centrifuged as above, served as negative controls.
For the test for haemolysis, the extinctions of the respective supernatants were measured in a photometer against the negative controls at a wavelength of 576 nm using a cuvette 10 mm in thickness. Owing to the differing stainings of the solutions, the extinction was also measured for the purpose of comparing the solutions without erythrocyte suspension.

sheep erythrocytes = details: compared with commercially available amphotericin B deoxycholate formulations

Substance: Amphotericin B-HES Conjugate [Ampho HES]
- haemolytic activity (erythrocytes; 0.4 mg/ml amphotericin B in the test batch): slight haemolytic activity
- haemolytic activity (erythrocytes; 0.83 mg/ml amphotericin B in the test batch): strong haemolytic activity
- haemolytic action (erythrocytes; up to 0.2 mg amphotericin B per ml): no haemolytic action
- in vitro toxicity (haemolysis) (sheep erythrocytes): considerably less
